## Results of single-concentration screens

Source: ChEMBL document CHEMBL3988442, “University of Dundee, Small-Polar-MMV Screening Library” (2021).

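Whole-cell growth test on Mycobacterium tuberculosis, read after 3 days in glucose-containing 7H9 medium; the read-out is not stated. Tested at 500 µM. Direction is inferred from retests: higher values go with more growth inhibition. Size under these conditions: about 18,000 compounds, about 1,400 of them at 50% or above in at least one test.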

Each number is a percent effect as filed. The record does not define 0% and 100%; most values in the screen are far below 50% and negative numbers occur (in some assays of this library far below -100). Many other results are left out here, so strong results are more common than in the screen.

| # | SMILES | effect |
|---|---|---|
| 1 | `CCCn1cnnc1CNC(=O)Cn1nc(C)cc1N` | 4.623 |
| 2 | `COc1ccc2nc(CCN)[nH]c2c1` | 13.23 |
| 3 | `CC1c2ccsc2CCN1C(=O)c1ccn(C)c(=O)c1` (centres undefined) | 24.64 |
| 4 | `COc1cccc([C@@H]2C[C@H]2N)c1` | 37.21 |
| 5 | `COc1c(CNCc2nncn2C)c(C)nn1C` | -11.43 |
| 6 | `O=C(C1CCS(=O)(=O)C1)N1CCc2ccccc2C1` (centres undefined) | 5.799 |
| 7 | `Cc1ncsc1C(=O)Nc1cc(Br)c(=O)n(C)c1` | -2.982 |
| 8 | `CN(C)[C@@H]1C[C@@H](CO)N(C(=O)c2ccc(Cl)s2)C1` | 8.228 |
| 9 | `COC(=O)C1(N)CCSC1` (centres undefined) | 6.005 |
| 10 | `Cn1cc(C(N)CN)cn1` (centres undefined) | -0.2174 |
| 11 | `CN(C)c1cc(CO)ccn1` | -9.609 |
| 12 | `CCN(CC)C(=O)c1cc(N(C)S(C)(=O)=O)ccc1Cl` | 25.1 |
| 13 | `Cn1nnnc1SCCC(=O)Nc1ccc(F)cc1` | 1.469 |
| 14 | `c1cc(-c2nnco2)ccn1` | -1.223 |
| 15 | `CC(C)(C)OCC(O)CN1CCCCC1` (centres undefined) | 0.5848 |
| 16 | `CC1(COC(=O)c2cccnc2)CCCO1` (centres undefined) | 5.267 |
| 17 | `CC(C)(C#N)C(=O)Nc1nc2ccccc2[nH]1` | -1.166 |
| 18 | `CC(C)NC(=O)NCC1(N2CCOCC2)CCSC1` (centres undefined) | 50.83 |
| 19 | `Cc1cc(CS(=O)(=O)c2ccccn2)no1` | 9.106 |
| 20 | `CC(N)c1nncn1C` (centres undefined) | 41.5 |
| 21 | `O=C(Cc1ccccc1O)NCCOCC1CCOC1` (centres undefined) | 9.896 |
| 22 | `CN(CC(=O)NCCCO)C(=O)c1ccccc1` | 7.201 |
| 23 | `CC(C)c1cccc(S(=O)(=O)N(C)Cc2nnc[nH]2)c1` | 51.11 |
| 24 | `CN(C)S(=O)(=O)NCC(O)c1ccc(Cl)c(F)c1` (centres undefined) | 50.87 |
| 25 | `Cc1ccc(C(=O)N2CCN(C)CC2)cn1` | 12.34 |
| 26 | `COC(=O)C(C)S(N)(=O)=O` (centres undefined) | -9.137 |
| 27 | `COc1ccc(NCCCO)cc1` | 43.87 |
| 28 | `Cc1ccc(S(=O)(=O)NCCN)cc1Br` | 42.12 |
| 29 | `CC(C)OC1CCCNC1` (centres undefined) | -5.241 |
| 30 | `CC(C(N)=O)N1CCC(=Cc2ccccc2)CC1` (centres undefined) | 68.33 |
| 31 | `CNC(=O)C1CCCCN1C(=O)c1ccc(Cl)o1` (centres undefined) | 11.66 |
| 32 | `COc1ccc(Cl)c(CSCC(O)CO)c1` (centres undefined) | 44.37 |
| 33 | `Cn1nnc(NC(=O)c2ccc(C#N)cc2F)n1` | 9.184 |
| 34 | `CS(=O)(=O)NCCNc1nc2ccccc2s1` | 24.5 |
| 35 | `Cc1nnc(SC[C@H](O)COCc2ccccc2)s1` | 71.97 |
| 36 | `CC(C)OCc1nc(C(C)N)no1` (centres undefined) | 11.18 |
| 37 | `CN1C(=O)C[C@H](CN)[C@H]1c1ccccc1` | -8.338 |
| 38 | `CN(CC(=O)N[C@@H]1COCC[C@H]1O)Cc1ccccn1` | 11.11 |

Once more, the final 4:

SMILES	effect
Cc1nnc(SC[C@H](O)COCc2ccccc2)s1	71.97
CC(C)OCc1nc(C(C)N)no1 (centres undefined)	11.18
CN1C(=O)C[C@H](CN)[C@H]1c1ccccc1	-8.338
CN(CC(=O)N[C@@H]1COCC[C@H]1O)Cc1ccccn1	11.11